{"source": "paper PMC11053136", "about": "(Nature Communications, 2024)", "key": {"[1]": {"biological_target": "T1, PLY-C428A (Streptococcus pneumoniae, UniProt Q7ZAK5, C428A)", "details": "6 µM"}, "[2]": {"biological_target": "T1, PLY-C428A", "details": "2, 4 and 8 µM"}}}
{"smiles": "Cc1cc(C)cc(N2C(=O)NC(=O)/C(=C\\c3ccc(-c4ccc(Cl)cc4Cl)o3)C2=O)c1", "note": "[PB-3]", "values": [{"measurement": "Activity against PLY-C428A in LDH assay", "setting": "[1]", "value": "inactive"}, {"measurement": "BLI response on immobilized PLY-C428A", "setting": "[2]", "value": "no response"}]}
